Data published in article PMC5025708, “Structural Basis of Host Autophagy-related Protein 8 (ATG8) Binding by the Irish Potato Famine Pathogen Effector Protein PexRD54*^([image sbox.jpg])^♦” (The Journal of Biological Chemistry, 2016).

B1: PexRD54^Δ298 (Ser-299 to Val-381) (domain or fragment)
chain: SESSHKTMADVWLKARETPEEVFRILRLAEKQTAAADDNRMLNLWLRYTQTYRDKIDKNAFSDAEALQFFRKAKPLDFDWEIV
B2: ATG8CL (potato), expressed from pOPINF (natural protein)
chain: MAKSSFKLEHPLERRQAEAARIREKYPDRIPVIVEKAERSDIPDIDKKKYLVPADLTVGQFVYVVRKRIKLSAEKAIFIFVKNILPPTAAMMSAIYEEHKDEDGFLYMTYSGENTFGSF
notes: also called pOPINF-ATG8CL
B3: 10-mer peptide of PexRD54 (Lys-372–Val-381) with Phe at position 378 (peptide)
peptide: KPLDFDFEIV
modifications: anchored to the membrane at the N terminus, free C terminus

How the values were obtained:
[1] = target: B2; test: ITC
[2] = target: PexRD54^Δ218 (Arg-219 to Val-381) (Phytophthora infestans, UniProt D0NBE6 219-381); test: ITC
[3] = target: T1, ATG8CL-GST-His fusion protein (potato, UniProt M1C146 1-119); test: peptide or protein array
T1 construct: source: E. coli, purified (Ni-NTA, gel filtration)
T1 sequence: B2 chain

B1 was tested, and the Kd [1] was 39 nM.

B2 was tested, and the Kd [2] was 69 nM.

B3: binds [3].
